Literature values, collected in patent publication US5976535A, “Pretargeting protocols for the enhanced localization of cytotoxins to target sites and cytotoxic combinations useful therefore” (NeoRx Corporation, priority 1995, dated 1999).

Settings: palytoxin with preserved free terminal amino group; cited from earlier work

Substance: palytoxin
- toxicity relative to palytoxin derivatives lacking a free amine: approximately 500 fold
